Molecular target: MBP3L-Cpe0147-T450S^439-563 (Clostridium perfringens)
Experiment: SDS-PAGE time course of ester bond formation

Cpe0147^565-587-eGFP fusion
percent conversion at ~1 h: > 50%
